Anti-infective test results gathered from many reports (values: NIAID ChemDB through PubChem).

Shared fields: growth or infection tests; species: Hepatitis B virus

ECn: concentration that inhibits the pathogen or its effect by n%.

compound,read by,endpoint,cells,strain or isolate,result
C[C@@H]1[C@@H](C)c2[nH]nc(-c3ncccn3)c2CN1C(=O)Nc1ccnc(Br)c1F,PCR,EC50,HepG2.2.15,-,0.032 µM
Cn1ccc2cc(-n3c(C(=O)NCc4ccccc4)c4n(c3=O)CCN(C(=O)c3ccc(Br)c(Cl)c3)C4)ccc21,PCR,EC50,HepG2.117,-,0.1–0.5 µM
Cc1cc(C)n(-c2nc3c(c(=O)n2-c2cc(Cl)c4c(c2)ncn4C)C[C@@H](C)N(C(=O)c2ccc(Br)c(C(F)(F)F)c2)C3)n1,PCR,EC50,HepG2.117,Genotype D,≤0.05 µM
CNS(=O)(=O)N1CCN(S(=O)(=O)c2cn(C)c(C(=O)Nc3cc(F)c(F)c(F)c3)c2F)CC1,PCR,EC50,HepAD38 cells,-,0.1–0.3 µM
Cc1ccnn1-c1ccc(-n2c(C(=O)NCc3ccccc3)c3n(c2=O)CCN(C(=O)c2ccc(Br)c(Cl)c2)C3)cc1,PCR,EC50,HepG2.117,-,0.5–5 µM
Cc1cn(C[C@H]2C[C@H]2[C@H](O)CO)c(=O)[nH]c1=O,-,EC50,2.2.15,-,>10 µM
CS(=O)(=O)c1cc(C(=O)NCC2CCN(c3nc4cc(Cl)ccc4o3)CC2)ccn1,antigen / luminescence,EC50,Primary human hepatocytes (PHH),-,6.282 µM
CC[C@H](NC(=O)c1c2n(c(=O)n1-c1ccc(OC)cc1)CCN(C(=O)c1ccc(Br)c(Cl)c1)C2)c1ccccc1,PCR,EC50,HepG2.117,-,0.1–0.5 µM
Cc1cc(NC(=O)c2c3c(c(C)n2C)C(=O)NC(C)CC3)ccc1F,PCR,EC50,HepAD38,-,<0.5 µM
Cc1cc(C)n(-c2nc3c(c(=O)n2-c2ccc4c(c2)ncn4C)C[C@@H](C)N(C(=O)c2ccc(Br)c(C(F)(F)F)c2)C3)n1,PCR,EC50,HepG2.117,Genotype D,≤0.05 µM
C[C@@H]1Cc2nn3c(c2CN1C(=O)Nc1ccc(F)c(C(F)(F)F)c1)C(=O)N(C)C[C@H](c1ccn[nH]1)C3,fluorescence,EC50,HepG2.2.15,-,20 µM
O=C1COc2ccc(CNC(=O)c3c4n(c(=O)n3-c3ccc(OC5CC5)cc3)CCN(C(=O)c3ccc(Br)c(Cl)c3)C4)cc2N1,PCR,EC50,HepG2.117,-,0.5–5 µM
C[C@H](c1ccc(C(=O)NC23CC(c4nc5cc(Cl)ccc5s4)(C2)C3)o1)S(C)(=O)=O,ELISA / antigen,EC50,Primary human hepatocytes,-,0.36 µM
CSc1ncc(C(=O)NCCc2ccccn2)c(Nc2ccc3[nH]ncc3c2)n1,-,EC50,HepG2.2.15,-,<0.1 µg/mL
Nc1nc(=O)n([C@@H]2O[C@H](CO)[C@@H](CO)[C@@H]2F)cc1F,-,EC50,HepG2.2.15,-,0.13 µM
CNC(=O)c1cnc(SC)nc1Nc1ccc2[nH]ncc2c1,-,EC50,HepG2.2.15,-,<1 µg/mL
O=C(Nc1ccc2nn(-c3ccc(Cl)cc3)nc2c1)C1CCOC1,antigen / luminescence,EC50,Primary human hepatocytes (PHH),-,4 µM
CC(C)CCCCCCCCCCCCCCOCCCOP(=O)(O)CO[C@H](CO)Cn1cnc2c(N)ncnc21,hybridisation,EC50,-,-,0.8 µM
Cc1cc(C)n(-c2nc3c(c(=O)n2-c2cc(F)c4c(c2)ncn4C)C[C@@H](C)N(C(=O)c2ccc(Br)c(C(F)(F)F)c2)C3)n1,PCR,EC50,HepG2.117,Genotype D,≤0.05 µM
Cc1c2c(c(C(=O)Nc3ccc(F)c(F)c3)n1C)CCC(C)(C)NC2=O,PCR,EC50,HepAD38,-,<0.05 µM
CSc1ncc(C(=O)N(C)C)c(Nc2ccc3[nH]ncc3c2)n1,-,EC50,HepG2.2.15,-,~0.1 µg/mL
Cc1cc(NC(=O)c2c3c(n(C)c2C)C(=O)NC(C)CC3)ccc1F,PCR,EC50,HepAD38,-,<0.05 µM
Nc1nc(N)c2ncn([C@H]3CO[C@@H](CO)O3)c2n1,-,EC50,AD38,Wild,12 µM
C[C@H]1Cc2[nH]nc(-c3cscn3)c2CN1C(=O)Nc1ccc(F)c(C#N)c1,PCR,EC50,HepG2.2.15,-,0.015 µM
Cc1cc(C)n(-c2nc3c(c(=O)n2-c2ccc(N4CC(O)C4)nc2)C[C@@H](C)N(C(=O)c2ccc(Br)c(C(F)(F)F)c2)C3)n1,PCR,EC50,HepG2.117,Genotype D,≤0.05 µM
CCC(O)CC1=C(C(=O)OC)C(c2ccc(F)cc2Cl)N=C(c2ncc(F)cc2F)N1,-,EC50,HepG2.2.15,-,0.3 µM
CSc1ncc(C(=O)NCCO)c(Nc2ccc3[nH]ncc3c2)n1,-,EC50,HepG2.2.15,-,<0.1 µg/mL
Nc1ncn([C@@H]2CC[C@H](CO)O2)c(=O)n1,-,EC50,-,-,1.5 µM
Cc1cc(NC(=O)c2c3c(c(C)n2C)C(=O)NC(C)(C)CC3)cnc1F,PCR,EC50,HepAD38,-,>1 µM
CCOC(=O)c1c(CSc2ccccc2)n(C)c2cc(Br)c(O)c(CN(C)C)c12,ELISA,EC50,HepAD38,-,4.321 µM
CS(=O)(=O)C1(c2cc(C(=O)NC34CC(c5nc(-c6ccc(Cl)cc6)no5)(C3)C4)ccn2)CC1,antigen / luminescence,EC50,Primary human hepatocytes,-,0.56 µM
Nc1nc(NC2CC2)c2ncn([C@H]3CO[C@@H](CO)O3)c2n1,-,EC50,AD38,Wild,<10 µM
Cc1cc(C)n(-c2nc3c(c(=O)n2-c2ccc(OCC(N)=O)cc2)C[C@@H](C)N(C(=O)c2ccc(Br)c(C(F)(F)F)c2)C3)n1,PCR,EC50,HepG2.117,Genotype D,≤0.05 µM
Nc1ccn([C@@H]2CS[C@H](CO)O2)c(=O)n1,-,EC90,HepG2,-,0.4 µM
Cc1cc(C)n(-c2nc3c(c(=O)n2-c2ccc(OC4CC(O)C4)nc2)C[C@@H](C)N(C(=O)c2ccc(Br)c(C(F)(F)F)c2)C3)n1,PCR,EC50,HepG2.117,Genotype D,≤0.05 µM
CC(C)(NC(=O)c1c2n(c(=O)n1-c1ccccc1)CCN(C(=O)c1ccc(Br)c(Cl)c1)C2)c1ccccc1,PCR,EC50,HepG2.117,-,>5 µM
C[C@H]1c2[nH]nc(-c3ncccn3)c2CN(C(=O)Nc2ccnc(Br)c2F)[C@H]1C,PCR,EC50,HepG2.2.15,-,0.039 µM
O=C(NCc1ccccc1-c1ccncn1)c1c2n(c(=O)n1-c1ccc(OCC(F)(F)F)cc1)CCN(C(=O)c1ccc(Br)c(Cl)c1)C2,PCR,EC50,HepG2.117,-,<0.1 µM
Nc1nc2c(ncn2CCC(CO)CO)c(=O)[nH]1,-,EC50,HEPAD79,-,45 µg/mL
CC(C)(c1cccc(C(=O)NC23CC(c4nc(-c5ccc(Cl)cc5)no4)(C2)C3)c1)S(C)(=O)=O,antigen / luminescence,EC50,Primary human hepatocytes,-,0.47 µM
COc1cc(C(=O)NC2CC3(C2)CN(c2nc4cc(Cl)ccc4o2)C3)ccn1,antigen / luminescence,EC50,Primary human hepatocytes (PHH),-,6.89 µM
CS(=O)(=O)C1(c2ncc(C(=O)NCCC3(c4ncc(-c5ccc(Cl)cc5)s4)CCC3)o2)CC1,antigen / luminescence,EC50,Primary human hepatocytes,-,0.07 µM
CN1CC(c2ccn[nH]2)Cn2nc3c(c2C1=O)CN(C(=O)Nc1ccc(F)c(C#N)c1)CC3,fluorescence,EC50,HepG2.2.15,-,93 µM
Cc1cc(F)cc(NC(=O)c2c3c(c(C)n2C)C(=O)NC(C)(C)CC3)c1,PCR,EC50,HepAD38,-,<0.05 µM
C[C@@H]1Cc2nn3c(c2CN1C(=O)Nc1ccc(F)c(C#N)c1)C(=O)N(C)C[C@@H](c1ccn[nH]1)C3,fluorescence,EC50,HepG2.2.15,-,260 µM
CCn1cc(S(=O)(=O)N[C@@H]2CCN(S(=O)(=O)NC)C2)c(F)c1C(=O)Nc1ccc(F)c(F)c1,PCR,EC50,HepAD38 cells,-,<0.1 µM
CSc1ncc(C(=O)NCCc2ccccn2)c(Nc2ccc3cn[nH]c3c2)n1,-,EC50,HepG2.2.15,-,<0.1 µg/mL
CCOCC1=C(C(=O)OCC)C(c2ccc(F)cc2Br)N=C(c2ncccc2F)N1,-,EC50,HepG2.2.15,-,0.1 µM
Nc1ncnc2c1ncn2C[C@H]1C[C@H]1CO,-,EC50,2.2.15,-,>10 µM
O=C(Nc1ccc(-c2nc3cccc(F)c3o2)cc1)C1COCCO1,antigen / luminescence,EC50,Primary human hepatocytes (PHH),-,0.96 µM
Nc1ccn([C@@H]2CS[C@H](CO)O2)c(=O)n1,-,EC50,HepG2,-,0.04 µM
CS(=O)(=O)c1ccc(C(=O)NC23CC(c4nc5ccc(Cl)cc5o4)(C2)C3)o1,antigen / luminescence,EC50,Primary human hepatocytes,-,5.971 µM
CS(=O)(=O)C1(c2cccc(C(=O)NC34CC(c5nc(-c6ccc(Cl)cc6)no5)(C3)C4)n2)CC1,antigen / luminescence,EC50,Primary human hepatocytes,-,0.72 µM
CN1[C@H](C(=O)Nc2ccc(F)c(Cl)c2)C[C@H](c2ncc(-c3cn(C)cn3)s2)NS1(=O)=O,ELISA / antigen,EC50,HepG2-NTCP,Genotype D,0.467 µM
O=C(c1ccc(Cl)c(Cl)c1)N1CCc2nn3c(c2C1)-c1noc(-c2ccccc2)c1CCC3,PCR,EC50,HepG2.117,-,>10 µM
O=C(c1ccc(Br)c(Cl)c1)N1CCn2c(c3n(c2=O)CCCN(CC2CC2)C3=O)C1,PCR,EC50,HepG2.117,-,>5 µM
COCCC1=C(C(=O)OC)[C@H](c2ccc(F)cc2Cl)N=C(c2ncc(F)cc2F)N1,-,EC50,HepG2.2.15,-,0.06 µM
CS(=O)(=O)C1(c2ccn(C(=O)NCCC3(c4ncc(-c5ccc(Cl)cc5)s4)CCC3)n2)CC1,antigen / luminescence,EC50,Primary human hepatocytes,-,0.06 µM
Nc1nc2c(ncn2C[C@]2(CO)C[C@H]2CO)c(=O)[nH]1,-,EC50,HEPAD79,-,>20 µg/mL
Nc1ncn([C@H]2CC[C@H](CO)O2)c(=O)n1,-,EC50,-,-,>100 µM
CS(=O)(=O)C1(c2nsc(C(=O)NCCC3(c4ccnc(-c5ccc(Cl)cc5)n4)CCC3)n2)CC1,antigen / luminescence,EC50,Primary human hepatocytes,-,0.07 µM
CCNC(=O)C(=O)NC1CCN(S(=O)(=O)c2cn(C)c(C(=O)Nc3cc(F)c(F)c(F)c3)c2F)CC1,PCR,EC50,HepAD38 cells,-,0.1–0.3 µM
CC(=O)O[C@H]1CC[C@]2(C)[C@H]3C(=O)C=C4[C@@H]5C[C@@](C)(C(=O)O)CC[C@]5(C)CC[C@@]4(C)[C@]3(C)CC[C@H]2C1(C)C,-,EC50,HepG2.2.15,-,20.86 µM
Nc1nc2c(ncn2[C@@H]2C[C@H](CO)[C@H]2CO)c(=O)[nH]1,-,EC50,HEPAD79,-,1.1 µg/mL
CNC(=O)c1cccc(-n2c(C(=O)NCc3ccccc3)c3n(c2=O)CCN(C(=O)c2ccc(Br)c(Cl)c2)C3)c1,PCR,EC50,HepG2.117,-,0.5–5 µM
CNC(=O)c1ccc(-n2c(-n3nc(C)cc3C)nc3c(c2=O)C[C@@H](C)N(C(=O)c2ccc(Br)c(C(F)(F)F)c2)C3)cn1,PCR,EC50,HepG2.117,Genotype D,≤0.05 µM
CNS(=O)(=O)N1CCC(NS(=O)(=O)c2cn(C)c(C(=O)Nc3ccc(F)c(F)c3)c2F)C(F)(F)C1,PCR,EC50,HepAD38 cells,-,<0.1 µM
C[C@@H]1Cc2nn3c(c2CN1C(=O)Nc1ccc(F)c(C#N)c1)C(=O)N(C)C[C@@H](c1ccno1)C3,fluorescence,EC50,HepG2.2.15,-,150 µM
Cc1cccc(NC(=O)c2c3c(c(C)n2C)C(=O)N[C@@H](C)C3)c1F,PCR,EC50,HepAD38,-,0.5–1 µM
CCOC(=O)[C@H](C)NP(=O)(OC[C@@H]1OC[C@H](n2cnc3c(OC)nc(N)nc32)O1)Oc1ccccc1,-,EC50,AD38,Wild,0.2 µM
Nc1nc2c(ncn2COC(CO)CO)c(=O)[nH]1,-,EC50,HEPAD79,-,>50 µg/mL
Cc1cn(C[C@H]2C[C@H]2CO)c(=O)[nH]c1=O,-,EC50,2.2.15,-,>10 µM

Again, the opening 10 rows:

compound,read by,endpoint,cells,strain or isolate,result
C[C@@H]1[C@@H](C)c2[nH]nc(-c3ncccn3)c2CN1C(=O)Nc1ccnc(Br)c1F,PCR,EC50,HepG2.2.15,-,0.032 µM
Cn1ccc2cc(-n3c(C(=O)NCc4ccccc4)c4n(c3=O)CCN(C(=O)c3ccc(Br)c(Cl)c3)C4)ccc21,PCR,EC50,HepG2.117,-,0.1–0.5 µM
Cc1cc(C)n(-c2nc3c(c(=O)n2-c2cc(Cl)c4c(c2)ncn4C)C[C@@H](C)N(C(=O)c2ccc(Br)c(C(F)(F)F)c2)C3)n1,PCR,EC50,HepG2.117,Genotype D,≤0.05 µM
CNS(=O)(=O)N1CCN(S(=O)(=O)c2cn(C)c(C(=O)Nc3cc(F)c(F)c(F)c3)c2F)CC1,PCR,EC50,HepAD38 cells,-,0.1–0.3 µM
Cc1ccnn1-c1ccc(-n2c(C(=O)NCc3ccccc3)c3n(c2=O)CCN(C(=O)c2ccc(Br)c(Cl)c2)C3)cc1,PCR,EC50,HepG2.117,-,0.5–5 µM
Cc1cn(C[C@H]2C[C@H]2[C@H](O)CO)c(=O)[nH]c1=O,-,EC50,2.2.15,-,>10 µM
CS(=O)(=O)c1cc(C(=O)NCC2CCN(c3nc4cc(Cl)ccc4o3)CC2)ccn1,antigen / luminescence,EC50,Primary human hepatocytes (PHH),-,6.282 µM
CC[C@H](NC(=O)c1c2n(c(=O)n1-c1ccc(OC)cc1)CCN(C(=O)c1ccc(Br)c(Cl)c1)C2)c1ccccc1,PCR,EC50,HepG2.117,-,0.1–0.5 µM
Cc1cc(NC(=O)c2c3c(c(C)n2C)C(=O)NC(C)CC3)ccc1F,PCR,EC50,HepAD38,-,<0.5 µM
Cc1cc(C)n(-c2nc3c(c(=O)n2-c2ccc4c(c2)ncn4C)C[C@@H](C)N(C(=O)c2ccc(Br)c(C(F)(F)F)c2)C3)n1,PCR,EC50,HepG2.117,Genotype D,≤0.05 µM

a–b is a range or a potency band. An empty or dashed field is not shown. Conditions beyond the fields shown may differ between rows.